Only a part is listed here, and it is no random draw. Active and inactive are the calls of the source. Rule as the data show it: active = inhibition above about 50%; inactive = the rest.

The text below walks through data of PubChem BioAssay AID1063 (University of Pittsburgh Molecular Library Screening Center, 2008).

This assay in a line: antileishmanial activity against promastigotes – primary screen (AID 1063).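 Also: promastigotes grown with compound for 44 hours at 28 °C.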 The following applies: Leishmania major promastigotes, resazurin fluorescence viability; at 10 µM; hits give high values. (In general: Resazurin is reduced to fluorescent resorufin, in cell work by metabolically active cells.)
Regarding `COc1ccc(OP(C)(=O)Nc2ccc(Br)cc2)cc1` (centres undefined), the inhibition (commonly the change of the read-out against control, counted positive when it falls) was inactive: 46.6%.

On to `CCN(CC)CC(O)COC(=O)C(O)(c1ccccc1)C1CCCCC1` (centres undefined), for which the inhibition was inactive: 33.4%.

As to `CCc1ccc(OP(C)(=O)Nc2cccnc2)cc1` (centres undefined), the inhibition was inactive: 5.17%.

`CP(=O)(Oc1ccccc1)N1CCOC1=O` (centres undefined): the inhibition is inactive: -4.86%.

For the compound `COc1ccccc1OP(C)(=O)Nc1c(C)n(C)n(-c2ccccc2)c1=O` (centres undefined), the inhibition is inactive: -3.4%.

In the case of `CP(=O)(Nc1ccc(Cl)cc1)Oc1ccc(F)cc1` (centres undefined), the inhibition is inactive: -2.78%.

As for `CC(C)(C)c1ccc(OP(C)(=O)O)cc1`, the inhibition was inactive: -4.49%.

As to `COc1ccccc1OP(C)(=O)Nc1ccccc1Br` (centres undefined), the inhibition is inactive: -4.12%.

For the compound `CN(C)C(=O)c1c([N+](=O)[O-])cc([N+](=O)[O-])cc1[N+](=O)[O-]`, the inhibition was active: 100%.

For the compound `CP(=O)(OC12CC3CC(CC(C3)C1)C2)OC12CC3CC(CC(C3)C1)C2`, the inhibition is inactive: 38.2%.

For the compound `CCOC(=O)c1ccc(NP(C)(=O)Oc2ccc(Cl)cc2)cc1` (centres undefined), the inhibition was inactive: 8.24%.

On to `Cc1cc(C)cc(OP(C)(=O)Nc2cccc(C(F)(F)F)c2)c1` (centres undefined), for which the inhibition is inactive: 8.39%.

On to `COc1ccc(OP(C)(=O)Nc2ccccc2Br)cc1` (centres undefined), for which the inhibition was inactive: -0.12%.

Regarding `COc1ccccc1OP(C)(=O)Nc1ccc(C)c(C)c1` (centres undefined), the inhibition was inactive: -2.44%.

Regarding `Cc1nc2ccc3ccccc3c2o1.O=[N+]([O-])c1cc([N+](=O)[O-])c(O)c([N+](=O)[O-])c1`, the inhibition is inactive: 43.6%.

In the case of `CP(=O)(OCCOc1ccccc1)OCCOc1ccccc1`, the inhibition is inactive: -8.67%.

For the compound `CP(=O)(Nc1ccc(Cl)cc1Cl)Oc1ccccc1` (centres undefined), the inhibition was inactive: -5.19%.

Turning to `CN(C)CCOC(=O)C(O)(c1ccccc1)C1CCCC1` (centres undefined), the inhibition was inactive: 0.72%.

As for `COc1ccc(OP(C)(=O)Nc2ccccn2)cc1` (centres undefined), the inhibition is inactive: -2.73%.

As for `O=[N+]([O-])c1cc([N+](=O)[O-])c(Nc2ccccn2)c([N+](=O)[O-])c1`, the inhibition was active: 72.6%.

`Cc1c(NP(C)(=O)Oc2ccc(C(C)C)cc2)c(=O)n(-c2ccccc2)n1C` (centres undefined): the inhibition was inactive: -6.33%.

`CCc1ccc(OP(C)(=O)O)cc1`: the inhibition is inactive: -3.5%.

Consider `COc1ccccc1OP(C)(=O)Nc1ccc(C)cc1C` (centres undefined), for which the inhibition was inactive: 10.3%.

With `CP(=O)(Nc1ccccn1)Oc1ccccc1` (centres undefined), the inhibition is inactive: 10.6%.

With `CC(C)c1ccc(OP(C)(=O)Nc2ccc(SC(F)(F)F)cc2)cc1` (centres undefined), the inhibition is inactive: 11%.

With `CP(=O)(Nc1ccccc1F)Oc1ccccc1` (centres undefined), the inhibition was inactive: -6.28%.

Take `O=C(OCCN1CCN(CCOCc2ccccc2)CC1)C(O)(c1ccccc1)c1ccccc1`: the inhibition is inactive: 7.52%.

Take `COc1ccc(OP(C)(=O)Nc2ccc(SC(F)(F)F)cc2)cc1` (centres undefined): the inhibition was inactive: 22.1%.

For `CCOC(=O)c1ccc(NP(C)(=O)Oc2ccc(F)cc2)cc1` (centres undefined), the inhibition was inactive: -0.91%.

Regarding `CCN(CC)CCCOC(=O)C(O)(c1ccccc1)C1CCCCC1` (centres undefined), the inhibition is inactive: 32.6%.

As to `CP(=O)(Nc1ccccc1)Oc1ccc(F)cc1` (centres undefined), the inhibition was inactive: -1.33%.

For `COc1ccc(OP(C)(=O)Nc2cccc(Br)c2)cc1` (centres undefined), the inhibition was inactive: 10.5%.

As to `COc1ccc(NP(C)(=O)Oc2ccccc2OC)cc1` (centres undefined), the inhibition was inactive: -3.77%.

For the compound `CN(C)CCOC(=O)C(O)(c1ccccc1)C1CCCCC1` (centres undefined), the inhibition is inactive: 2.42%.

In the case of `O=[N+]([O-])c1cc([N+](=O)[O-])c(NCC2CCS(=O)(=O)C2)c([N+](=O)[O-])c1` (centres undefined), the inhibition is active: 99.8%.

Regarding `CCOP(C)(=S)SCC(=O)NC(C)(CC)C(=O)O` (centres undefined), the inhibition is inactive: -5.66%.

For `CP(=O)(Nc1ccc2c(c1)OCCO2)Oc1ccccc1` (centres undefined), the inhibition was inactive: 3.7%.

Turning to `Cc1ccccc1NP(C)(=O)Nc1ccccc1C`, the inhibition was inactive: -6.66%.

As to `O=[N+]([O-])c1cc([N+](=O)[O-])c(-n2nnc3ccccc32)c([N+](=O)[O-])c1`, the inhibition was inactive: -8.2%.

As for `Cc1nc2ccc3ccccc3c2s1.O=[N+]([O-])c1cc([N+](=O)[O-])c(O)c([N+](=O)[O-])c1`, the inhibition is inactive: -7%.

For `COc1ccccc1OP(C)(=O)Nc1c(C)cccc1C` (centres undefined), the inhibition is inactive: -6.45%.

Turning to `CN1CCCCC1COC(=O)C1(O)c2ccccc2CCc2ccccc21` (centres undefined), the inhibition was inactive: 9.72%.

Regarding `CP(=O)(Nc1ccc(SC(F)(F)F)cc1)Oc1ccccc1` (centres undefined), the inhibition was inactive: -5.93%.

Take `CCCOc1ccc(NP(C)(=O)Oc2ccc(Cl)cc2)cc1` (centres undefined): the inhibition is active: 87.2%.

As to `CC1=NCCc2c1[nH]c1ccccc21.O=[N+]([O-])c1cc([N+](=O)[O-])c(O)c([N+](=O)[O-])c1`, the inhibition is inactive: -3.34%.

For the compound `Cc1cc(C)cc(OP(C)(=O)Nc2ccc(C)cc2C)c1` (centres undefined), the inhibition was inactive: -1.49%.

`CCOC(=O)c1ccc(NP(C)(=O)Oc2cc(C)cc(C)c2)cc1` (centres undefined): the inhibition was active: 66.3%.

For `CP(=O)(Nc1cccc(Br)c1)Oc1ccccc1` (centres undefined), the inhibition was inactive: -1.69%.

On to `Cc1cc(C)cc(OP(C)(=O)Nc2ccccn2)c1` (centres undefined), for which the inhibition was inactive: -2.56%.

Consider `Cc1ccc(C)c(NP(C)(=O)Oc2ccccc2)c1` (centres undefined), for which the inhibition was inactive: 1.47%.

`CCN(CC)CCCOC(=O)C(O)(c1ccccc1)c1ccccc1`: the inhibition was inactive: 26.9%.

Regarding `Cc1cccc(C)c1OP(C)(N)=O` (centres undefined), the inhibition is inactive: -6.96%.

Turning to `CC(C)(C)c1ccc(OP(C)(=O)Nc2ccc(SC(F)(F)F)cc2)cc1` (centres undefined), the inhibition is inactive: 25.9%.

For `O=[N+]([O-])c1ccc2c(c1)C=Nc1ccccc1O2`, the inhibition is active: 97.8%.

As for `CCOC(=O)c1ccc(NP(C)(=O)Oc2ccccc2)cc1` (centres undefined), the inhibition is inactive: -4.69%.

For the compound `Cc1ccc(NP(C)(=O)Oc2ccccc2)c(C)c1` (centres undefined), the inhibition was inactive: -5.02%.

Consider `COc1ccccc1OP(C)(=O)Nc1ccc(C)cc1` (centres undefined), for which the inhibition is inactive: -8.92%.

For the compound `COc1ccc(OP(C)(=O)Nc2cccc(F)c2)cc1` (centres undefined), the inhibition was inactive: -7.43%.

Regarding `COc1ccccc1OP(C)(=O)Nc1cc(Cl)ccc1C` (centres undefined), the inhibition was inactive: 1.51%.

Regarding `Cc1cc(C)cc(OP(C)(N)=O)c1` (centres undefined), the inhibition is inactive: -11.7%.

In the case of `CP(=S)(Nn1cnnc1)Oc1ccccc1` (centres undefined), the inhibition was inactive: -5.43%.

With `COc1ccccc1OP(C)(=O)Nc1ccccc1` (centres undefined), the inhibition was inactive: -1.49%.

Take `CP(=O)(Nc1ccccc1Br)Oc1ccccc1` (centres undefined): the inhibition was inactive: -5.15%.

`CP(=O)(Oc1ccccc1)OC(c1ccccc1)C(F)(F)F` (centres undefined): the inhibition was inactive: -3.68%.

`Cc1cccc(C)c1OP(C)(=O)Nc1ccc(SC(F)(F)F)cc1` (centres undefined): the inhibition was inactive: 16.6%.

`Cc1cc(C)cc(OP(C)(=O)Nc2ccc(SC(F)(F)F)cc2)c1` (centres undefined): the inhibition was inactive: 3.35%.

For `CP(=O)(NC(=O)Nc1ccccc1)Oc1ccccc1` (centres undefined), the inhibition is inactive: -2.35%.

On to `CCOC(=O)c1ccc(NP(C)(=O)Oc2ccc(OC)cc2)cc1` (centres undefined), for which the inhibition was inactive: -1.06%.

Regarding `CP(=O)(Nc1ccccn1)Oc1ccc(Cl)cc1` (centres undefined), the inhibition was inactive: 3.27%.
